# In article PMC5899197 (Journal of Virology, 2018):
# Amino acid sequences for entries named in this document (tags omitted). A change or cut given only in a name is not applied to a line headed by its entry.
# UniProt Q288N7: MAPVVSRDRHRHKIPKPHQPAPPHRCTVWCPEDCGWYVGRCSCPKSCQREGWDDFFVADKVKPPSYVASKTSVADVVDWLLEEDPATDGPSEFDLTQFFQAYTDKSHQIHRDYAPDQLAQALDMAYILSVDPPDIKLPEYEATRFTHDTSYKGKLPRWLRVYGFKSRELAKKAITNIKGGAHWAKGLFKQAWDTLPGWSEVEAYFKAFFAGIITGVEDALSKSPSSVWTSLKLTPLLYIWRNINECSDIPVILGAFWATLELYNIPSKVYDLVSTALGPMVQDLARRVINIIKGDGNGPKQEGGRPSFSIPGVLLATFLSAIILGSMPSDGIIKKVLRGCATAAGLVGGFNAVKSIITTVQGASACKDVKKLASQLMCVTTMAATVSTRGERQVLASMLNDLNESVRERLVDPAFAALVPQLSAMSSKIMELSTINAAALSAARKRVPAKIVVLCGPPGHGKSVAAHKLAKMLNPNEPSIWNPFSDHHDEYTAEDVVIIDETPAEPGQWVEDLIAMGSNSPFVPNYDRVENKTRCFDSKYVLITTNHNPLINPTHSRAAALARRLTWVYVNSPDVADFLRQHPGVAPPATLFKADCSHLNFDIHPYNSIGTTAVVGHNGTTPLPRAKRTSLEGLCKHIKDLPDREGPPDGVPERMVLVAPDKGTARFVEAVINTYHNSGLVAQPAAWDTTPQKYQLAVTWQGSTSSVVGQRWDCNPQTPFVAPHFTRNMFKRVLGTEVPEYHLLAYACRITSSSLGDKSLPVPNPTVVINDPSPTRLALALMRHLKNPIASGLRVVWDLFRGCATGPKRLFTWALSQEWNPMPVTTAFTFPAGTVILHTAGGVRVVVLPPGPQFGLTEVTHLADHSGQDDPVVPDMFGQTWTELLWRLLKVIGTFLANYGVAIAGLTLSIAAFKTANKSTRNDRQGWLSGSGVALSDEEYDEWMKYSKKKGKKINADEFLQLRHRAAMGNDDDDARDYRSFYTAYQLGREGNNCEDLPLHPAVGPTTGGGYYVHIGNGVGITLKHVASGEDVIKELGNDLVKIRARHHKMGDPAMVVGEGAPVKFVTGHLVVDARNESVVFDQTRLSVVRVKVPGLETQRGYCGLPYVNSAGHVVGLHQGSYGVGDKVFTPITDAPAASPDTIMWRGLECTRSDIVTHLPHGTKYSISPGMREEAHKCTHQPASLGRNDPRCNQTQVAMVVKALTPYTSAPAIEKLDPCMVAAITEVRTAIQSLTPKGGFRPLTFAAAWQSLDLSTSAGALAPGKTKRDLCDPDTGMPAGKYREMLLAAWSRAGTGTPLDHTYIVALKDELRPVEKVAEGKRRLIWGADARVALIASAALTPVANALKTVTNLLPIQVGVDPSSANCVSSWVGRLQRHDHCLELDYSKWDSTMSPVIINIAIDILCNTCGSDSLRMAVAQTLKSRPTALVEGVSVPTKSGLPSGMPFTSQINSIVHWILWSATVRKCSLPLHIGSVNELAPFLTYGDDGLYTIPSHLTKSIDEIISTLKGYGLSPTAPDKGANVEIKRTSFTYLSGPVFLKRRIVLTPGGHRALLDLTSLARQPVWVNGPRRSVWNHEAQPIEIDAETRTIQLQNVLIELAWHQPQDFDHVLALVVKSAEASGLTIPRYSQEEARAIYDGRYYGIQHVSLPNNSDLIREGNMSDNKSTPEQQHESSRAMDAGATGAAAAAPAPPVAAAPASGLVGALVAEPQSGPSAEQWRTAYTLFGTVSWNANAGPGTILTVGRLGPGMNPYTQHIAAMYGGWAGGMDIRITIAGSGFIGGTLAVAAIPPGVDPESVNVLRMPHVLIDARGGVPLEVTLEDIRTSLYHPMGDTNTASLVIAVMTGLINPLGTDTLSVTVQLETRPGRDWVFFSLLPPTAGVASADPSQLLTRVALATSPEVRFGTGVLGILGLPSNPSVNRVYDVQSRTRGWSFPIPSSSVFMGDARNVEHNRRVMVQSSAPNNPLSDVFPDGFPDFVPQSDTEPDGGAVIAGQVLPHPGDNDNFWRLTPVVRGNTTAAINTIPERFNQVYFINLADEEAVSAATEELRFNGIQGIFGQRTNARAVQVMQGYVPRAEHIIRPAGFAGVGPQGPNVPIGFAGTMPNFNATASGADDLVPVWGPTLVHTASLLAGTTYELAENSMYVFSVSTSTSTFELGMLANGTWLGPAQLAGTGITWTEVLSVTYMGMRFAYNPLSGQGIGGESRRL
# Biological target: BNeV VLPs (rMA415; VP1-major capsid and VP2-minor capsid) (Newbury agent 1, UniProt Q288N7)
# Assay: plate binding assay (ELISA), HRP-streptavidin, A450
# Details: multivalent PAA-biotin conjugate of the glycan, 10 μg/ml; immobilised VLPs 50 μg/ml; labelled compound
smiles,measurement,value
CC(=O)N[C@H]1[C@H]([C@H](O)[C@H](O)CO)O[C@@](O[C@H]2[C@@H](O)[C@@H](CO)O[C@@H](O[C@H]3[C@H](O[C@@H]4O[C@@H](C)[C@@H](O)[C@@H](O)[C@@H]4O)[C@@H](NC(C)=O)C(O)O[C@@H]3CO)[C@@H]2O)(C(=O)O)C[C@@H]1O (stereo partly shown),"plate binding assay (ELISA), HRP-streptavidin, A450","sialyl-Le^a (SLe^a), Le^y, Le^x, αGal, H2, H1, SLe^x, A, and B type immobilized synthetic HBGA"
